Laboratory results as given in paper PMC7536154, “Biochemical characterization of ferric uptake regulator (Fur) from Aliivibrio salmonicida. Mapping the DNA sequence specificity through binding studies and structural modelling”.
Weaker means in comparison with the reference protein, sequence or condition of that experiment. Tags and fusion partners may be left off the protein sequences shown.

Target: T1, AsFur (ferric uptake regulator) (Aliivibrio salmonicida) (UniProt Q7AUU7)
T1 sequence (looked up): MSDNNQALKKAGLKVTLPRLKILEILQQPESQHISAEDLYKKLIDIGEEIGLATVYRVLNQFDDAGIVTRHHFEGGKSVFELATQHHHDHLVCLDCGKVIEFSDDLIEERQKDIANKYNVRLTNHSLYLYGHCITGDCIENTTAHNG
Assay: EMSA
Conditions: Mn2+ (100 uM MnCl2); EMSA: 20 mM Tris acetate pH 8.0, 1 mM MgCl2, 50 mM KCl, 1 mM DTT, 100 uM MnCl2, RT, 5 uM DNA, 0-80 uM AsFur, gel at 6 C; recombinant protein; residues 1-147

Binding result, binds more weakly:
AAATGATAATAATTAT / TATAATTATTATCATT [Vibrio shortened 16-mer, sticky ends (H)]
GATAATGATAATGATAATGATAAT (double strand) [E. coli 4 x GATAAT (L)]
GATAATGATAATGATAATC / ATTATCATTATCATTATCG [E. coli 3 x GATAAT, sticky ends (K)]
AATGATAATAATTAT (double strand) [Vibrio shortened 15-mer (I)]
